Reference: paper doi:10.1101/2021.04.14.439868
The exact form of at least one protein or probe is not confirmed. At least one verdict rests on a figure or table, not on a statement of the authors.

Chains of the proteins cited; added tags and fusions are not shown. Lines headed by an entry give the natural chain unless they say otherwise; changes in a name come on top.
UniProt P21308: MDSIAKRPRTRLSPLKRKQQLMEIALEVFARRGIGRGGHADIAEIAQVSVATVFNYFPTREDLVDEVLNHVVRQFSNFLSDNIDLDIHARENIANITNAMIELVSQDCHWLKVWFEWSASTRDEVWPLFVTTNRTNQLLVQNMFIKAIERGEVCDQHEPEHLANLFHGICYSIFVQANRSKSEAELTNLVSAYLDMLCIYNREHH

Target: LuxR (Vibrio campbellii BB120) (UniProt P21308)
Test: EMSA
Details: DMSO

Sequence: TTACTTATTTATAGTGTTACAAATAACATTA (double strand) [luxC promoter site B (JDN54/JDN55)]
- binding result: binds
